Anti-infective test results gathered from many reports (values: NIAID ChemDB through PubChem).

Shared fields: target-level tests; agent: HIV-1; target: Reverse transcriptase; read-out: IC50

Blank or dashed fields: not listed here. Neighbouring rows are from separate reports. ICn is the concentration giving n% inhibition.

compound,read by,changes,strain,value
Oc1ccc2c(c1)CN(c1nn3c(C4CC4)nnc3c3ccccc13)CC2,RT activity / fluorescence,-,KER2008,0.39 µM
Cc1nnc(SCC(=O)Nc2ccc(-c3ccc(OCC(=O)O)cc3)cc2Cl)n1-c1ccc(C(C)(C)C)cc1Cl,PicoGreen / fluorescence,-,WT,<1 µM
FC(F)(F)c1nnc2c3ccccc3c(N3CCc4ccccc4C3)nn12,RT activity / fluorescence,-,98US_MSC5016,0.85 µM
CCN1c2ncc(CCOc3ccc(-c4cc[n+]([O-])c(C)c4)cc3C)cc2C(=O)N(C)c2cccnc21,nucleotide incorporation / radiometric,RT-K103N Y181C,IIIB,<0.05 µM
COc1cc2c(cc1OC)CN(c1nn3c(C)nnc3c3ccccc13)CC2,RT activity / fluorescence,-,98US_MSC5016,0.44 µM
CC(C)(C#Cc1ccc(NC(=O)CSc2nnnn2-c2ccc(C(C)(C)C)cc2Cl)c(Cl)c1)OCC(=O)Nc1ccc(O)cc1,PicoGreen / fluorescence,RT-K103 Y181C,-,<1 µM
FC(F)(F)c1cccc2c1CCN(c1nn3c(C4CC4)nnc3c3ccccc13)C2,RT activity / fluorescence,-,IIIB,30.6 µM
Cc1ccc(-n2nnnc2SCC(=O)Nc2ccc(-c3cnc[nH]3)cc2Cl)c(Cl)c1,PicoGreen / fluorescence,-,WT,<1 µM
CCN1c2ncc(CCOc3ccc(-c4ccc(C)[n+]([O-])c4)cc3C)cc2C(=O)N(C)c2cccnc21,nucleotide incorporation / radiometric,RT-K103N Y181C,IIIB,<0.05 µM
CC(=O)NC(C)(C)C#Cc1ccc(NC(=O)CSc2nnnn2-c2ccc(C3CC3)cc2Cl)c(Cl)c1,PicoGreen / fluorescence,RT-K103 Y181C,-,<1 µM
CCc1cc(NCc2nc3c(C)ccc(C)c3o2)c(=O)[nH]c1C,nucleotide incorporation,RT-K103N,-,0.8319 µM
CCN1c2ncc(CCOc3ccc(-n4cc(C(=O)O)nn4)cc3C)cc2C(=O)N(C)c2cccnc21,nucleotide incorporation / radiometric,-,IIIB,<0.05 µM
COc1cc2c(cc1OC)CN(c1nn3c(C(F)F)nnc3c3ccccc13)CC2,RT activity / fluorescence,-,98US_MSC5016,3.41 µM
CCCC#Cc1ccc(NC(=O)CSc2nnnn2-c2ccc(C(C)(C)C)cc2Cl)c(Cl)c1,PicoGreen / fluorescence,RT-K103 Y181C,-,<1 µM
CCN1c2ncc(CCOc3ccc(-c4ccc(CC(=O)O)cc4)cc3C)cc2C(=O)N(C)c2cccnc21,nucleotide incorporation / radiometric,RT-K103N Y181C,IIIB,<0.05 µM

Repeating the first 2 entries:

compound | read by | changes | strain | value
Oc1ccc2c(c1)CN(c1nn3c(C4CC4)nnc3c3ccccc13)CC2 | RT activity / fluorescence | - | KER2008 | 0.39 µM
Cc1nnc(SCC(=O)Nc2ccc(-c3ccc(OCC(=O)O)cc3)cc2Cl)n1-c1ccc(C(C)(C)C)cc1Cl | PicoGreen / fluorescence | - | WT | <1 µM